Test results: EP0271041A2 (ABBOTT LABORATORIES, priority 1986, dated 1988)

Assay: general procedure: Boc solid-phase peptide synthesis; N-alpha-t-Boc-Arginyl(NG-Tos)-O Merrifield resin; diisopropylcarbodiimide
Conditions: whole synthesis

Substance “Seryl-Seryl-Cysteinyl-Phenylalanyl-Glycyl-Glycyl-Arginyl-Isoleucyl-Aspartyl-Arginyl-Isoleucyl Cysteinyl-Phenylalanyl-Arginyl Cyclic Disulfide” has an isolated mass of 20 mg and an isolated yield (scale of the general procedure 0.5 g - 1.0 g resin) of 6%.
